Compound potency records, mixed from different reports. Data source: NIAID ChemDB in PubChem.

Common to all: growth or infection tests; agent: Mycobacterium bovis BCG

MIC50, MIC90 and the like: level of inhibition, or share of isolates inhibited. Blank or dashed fields: not listed here. Conditions beyond the fields shown may differ between rows. Zone: diameter of growth inhibition.

smiles	conditions	method	dose	strain or isolate	endpoint	value
Fc1ccc(Cn2cc(/C=N/Nc3nncs3)c3ccccc32)cc1	24 h	broth dilution	-	1173P2	MIC100	3.91 µg/mL
CC(C)CC(=O)OC(=O)CC(C)C	24 h	resazurin	-	1173P2	MIC	125 µg/mL
Cc1cccc(Cn2cc(/C=N/Nc3nncs3)c3ccccc32)c1	24 h	broth dilution	-	1173P2	MIC100	15.63 µg/mL
O=C(O)Cc1ccc2[nH]c3ccc(F)cc3c2c1	-	resazurin / visual reading / absorbance	-	-	MIC99	125 µg/mL
C#CCOC(=O)CCCCCC	24 h	resazurin	-	1173P2	MIC	125 µg/mL
O=C(O)Cc1ccc2[nH]c3cc(Cl)ccc3c2c1	-	resazurin / visual reading / absorbance	-	-	MIC99	125 µg/mL
C#CC(O)CCCCC	48 h	resazurin	-	1173P2	MIC	125 µg/mL
NNC(=S)N/N=C/c1cn(CC2CCC2)c2ccccc12	48 h	broth dilution	-	1173P2	MIC100	>500 µg/mL
CCOC(=O)C#CC(=O)OCC	48 h	resazurin	-	1173P2	MIC	7.75 µg/mL
Cc1ccc(-c2ccc3[nH]c4cc(C(C)C(=O)O)ccc4c3c2)cc1	-	resazurin / visual reading / absorbance	-	-	MIC99	31.3 µg/mL
C#CC(C)(C)O	24 h	resazurin	-	1173P2	MIC	125 µg/mL
COC(=O)C(C)c1ccc2[nH]c3ccc(Cl)cc3c2c1	-	resazurin / visual reading / absorbance	-	-	MIC99	31.3 µg/mL
C(=N\Nc1nncs1)/c1cn(CC2CCCCC2)c2ccccc12	48 h	broth dilution	-	1173P2	MIC100	15.63 µg/mL
O=C(N[C@H]([C@H](O)CNCc1cccc(I)c1)C(F)(F)c1ccccc1)OCc1ccccc1	-	agar diffusion	50 µg/disc	Tice	zone	0 mm
CCCn1cc(/C=N/NC(=S)NN)c2ccccc21	24 h	broth dilution	-	1173P2	MIC100	>500 µg/mL
COC(=O)Cc1ccc2[nH]c3ccc(F)cc3c2c1	-	resazurin / visual reading / absorbance	-	-	MIC99	62.5 µg/mL

The last 2 rows once more:

smiles | conditions | method | dose | strain or isolate | endpoint | value
CCCn1cc(/C=N/NC(=S)NN)c2ccccc21 | 24 h | broth dilution | - | 1173P2 | MIC100 | >500 µg/mL
COC(=O)Cc1ccc2[nH]c3ccc(F)cc3c2c1 | - | resazurin / visual reading / absorbance | - | - | MIC99 | 62.5 µg/mL